Values from PubChem BioAssay AID504761 (Drosophila RNAi Screening Center, 2011).
In all, the deposit lists about 22,000 reagents; this is a random part of those with a known target gene and a result. Over the whole deposit, 116 (0.52%) were called active. 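Calls depend on retest data that are not deposited; infection was ranked per plate without normalising between plates; the unit of the infection score is not given.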 Raw values vary from plate to plate and are shown uncorrected. Entries without a mark were called inactive. A plus sign joins genes that one reagent is predicted to hit. Not given: the amount of reagent, the time to read-out.

Aim: 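Insect host genes that dengue virus relies on to spread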 (primary screen)
System: D.Mel-2 cells from Drosophila
Knock-down reagent: long dsRNA against Drosophila genes
Treatment: infection with dengue virus type 2; dose and infection time not stated
Read-out: 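Cells stained for dengue envelope protein and imaged; percent of infected cells per well on duplicate plates, ranked by infection, with stained nuclei counted for cell number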
Direction: infection score: higher = more virus-infected cells; cell count: higher = more cells in the well
Active means: 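Very low infection ranking in both replicate wells (chance probability at most 0.065), then a retest showing infection dropped 1.5-fold or more at p below 0.05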
Meaning of the calls: active = confirmed: knock-down lowers infection; inactive = not picked or not confirmed

target gene | PubChem SID | infection score, replicate 1 | infection score, replicate 2 | cell count, replicate 1 | cell count, replicate 2
Sf3b3 (Splicing factor 3b subunit 3) | SID104188162 | 5.09 | 6.31 | 2336 | 1188
Qtzl (Quetzalcoatl) | SID104181013 | 7.15 | 2.44 | 6015 | 6016
His2B:CG33894 + His2B:CG33872 + His2B:CG33902 + 20 more | SID104201057 | 7.54 | 4.05 | 1101 | 1062
CG14736 | SID104194748 | 5.97 | 5.93 | 6596 | 6665
CG14736 | SID104202975 | 18.1 | 8.19 | 7081 | 6286
hth (homothorax) | SID104196759 | 3.71 | 17.5 | 836 | 5285
hth (homothorax) | SID104203375 | 1.08 | 0.62 | 6386 | 6499
CG31207 | SID104201517 | 7.47 | 16.7 | 3239 | 5677
caps (capricious) | SID104191125 | 1.35 | 2.52 | 5937 | 6583
caps (capricious) | SID104201755 | 4.11 | 7.46 | 6501 | 6956
Tsen2 (tRNA splicing endonuclease subunit 2) | SID104181349 | 5.2 | 4.07 | 6362 | 5975
Tsen2 (tRNA splicing endonuclease subunit 2) | SID104206371 | 28.4 | 17.9 | 5882 | 6163
CG8492 | SID104190776 | 4.75 | 1.89 | 6292 | 6130
CG8492 | SID104201460 | 3.59 | 14.8 | 557 | 6066
spri (sprint) | SID104197776 | 8.09 | 19.8 | 5671 | 5246
spri (sprint) | SID104197777 | 5.03 | 11.8 | 5442 | 5764
spri (sprint) | SID104197778 | 4.64 | 22.7 | 5599 | 5797
spri (sprint) | SID104197781 | 1.85 | 4.75 | 6102 | 6131
spri (sprint) | SID104202284 | 0.89 | 2.09 | 6618 | 7314
spri (sprint) | SID104207358 | 31.2 | 25.1 | 5716 | 3158
CG8117 | SID104199874 | 10 | 10.9 | 6229 | 5140
CG8117 | SID104206257 | 3.78 | 3.99 | 6560 | 6794
Vinc (Vinculin) | SID104198520 | 14.7 | 2.03 | 1543 | 6459
CG17048 | SID104186441 | 1.91 | 7.41 | 1047 | 1215
galectin | SID104180097 | 1.76 | 3.58 | 6578 | 6585
CG15922 | SID104194920 | 1.01 | 8.91 | 6666 | 6602
CR32011 + CR32010 + PlexB + 1 more | SID104201349 | 1.32 | 2.23 | 5676 | 6410
CR32011 + CR32010 + PlexB + 1 more | SID104204643 | 6.34 | 2.14 | 5808 | 6318
CG31142 | SID104193439 | 4.89 | 6.05 | 5373 | 4531
superdeath (Suppressor of ER stress-induced death) | SID104194660 | 7.48 | 0.96 | 6830 | 6865
superdeath (Suppressor of ER stress-induced death) | SID104203050 | 8.58 | 3.97 | 6541 | 6377
fry (furry) | SID104188785 | 2.1 | 0.7 | 6343 | 6263
fry (furry) | SID104189964 | 1.13 | 4.39 | 6379 | 6238
fry (furry) | SID104190501 | 1.57 | 1.3 | 6162 | 6782
fry (furry) | SID104190504 | 10.3 | 11.3 | 6561 | 7276
CG4278 | SID104182533 | 26.4 | 18 | 5680 | 6520
CG11584 | SID104199200 | 10.3 | 5.7 | 6335 | 6416
CG11584 | SID104204167 | 9.71 | 8.51 | 4015 | 1656
Inx2 (Innexin 2) | SID104198575 | 16.4 | 3.6 | 574 | 6867
Inx2 (Innexin 2) | SID104203206 | 1.5 | 3.38 | 6847 | 6780
CG11825 | SID104185882 | 30.1 | 12.2 | 5734 | 3177
CG11825 | SID104206324 | 13.7 | 21.4 | 6917 | 6326
CG12991 | SID104199303 | 6.23 | 6.39 | 6665 | 6584
CG12991 | SID104206709 | 6.7 | 6.31 | 6717 | 6437
Alg7 | SID104182625 | 3.67 | 15.2 | 6618 | 5774
Alg7 | SID104182626 | 14.3 | 27.4 | 6008 | 3961
CG30491 | SID104201207 | 6.61 | 11.3 | 6746 | 6928
CG30491 | SID104203915 | 4.85 | 2.07 | 6495 | 6482
RpS17 (Ribosomal protein S17) | SID104191063 | 12.1 | 8.66 | 4730 | 5092
RpS17 (Ribosomal protein S17) | SID104208063 | 10 | 6.65 | 2191 | 1955
CG42288 | SID104186173 | 14.2 | 9.15 | 4756 | 6965
CG42288 | SID104205192 | 4.68 | 7.28 | 5902 | 5330
tplus3a + tplus3b | SID104183479 | 2.47 | 0.93 | 6691 | 6326
serp (serpentine) | SID104190827 | 5.22 | 6.72 | 6323 | 6368
serp (serpentine) | SID104190828 | 1.44 | 1.68 | 6512 | 6312
Moca-cyp | SID104195156 | 10.4 | 28.1 | 6209 | 5117
Moca-cyp | SID104204060 | 4.86 | 6.06 | 6542 | 6456
v (vermilion) | SID104200175 | 5.85 | 4.21 | 5779 | 6413

Copied from the list:
Entry of CG30491 [SID104201207] under “infection score, replicate 2”: 11.3
Value of CG8117 [SID104199874] in “cell count, replicate 1”: 6229
Under “cell count, replicate 1”, CG42288 [SID104205192] reads 5902
Result for superdeath (Suppressor of ER stress-induced death) [SID104203050] under “cell count, replicate 2”: 6377
CG14736 [SID104194748], infection score, replicate 1 = 5.97
Under “cell count, replicate 1”, CG12991 [SID104206709] has 6717
